Results of unrelated studies side by side (data: NIAID ChemDB).

All rows: growth or infection tests; species: Candida albicans

A number after MIC or MFC names an inhibition level or a share of isolates. An empty or dashed field is not shown. Rows are shuffled and stem from different studies.

structure	endpoint	strain	read by	value
CCCCCOc1ccc(-c2ccc(-c3ccc(C(=O)N[C@H]4CCCNC(=O)C5C[C@H](N)CN5C(=O)C(C(C)O)NC(=O)C(c5ccc(O)cc5)NC(=O)C5CC(O)CN5C(=O)C(C(C)O)NC4=O)cc3)cc2)cc1	MIC	ATCC 10231	-	50 µg/mL
c1ccc(C(c2ccccc2)n2cnc3ccccc32)cc1	MFC	-	broth dilution	>256 µg/mL
Nc1ncccc1-c1cc(Cc2ccc(COc3ccccn3)cc2)no1	MIC50	-	broth dilution	0.015 µg/mL
O/N=C\c1cccs1	MIC	-	-	5900 µM
Fc1ccccc1N1CCN(c2nc(NCCNc3ncnc4c(Br)cc(Br)cc34)nc(NC3CC3)n2)CC1	MIC	MTCC 183	agar	25 µg/mL
Cc1ccccc1-n1c(=S)[nH]c2c(sc(=S)n2-c2ccccc2)c1=O	MIC	DSM 70443	-	70 µg/mL
Clc1ccc(/C(Cn2ccnc2)=N/OCc2ccccc2)cc1	MIC	CA7	-	32 µg/mL
C[C@H]1[C@H](O)[C@@H](C)/C=C/C=C/C=C/C=C/C=C/C=C/C=C/[C@H](O[C@@H]2O[C@H](C)[C@@H](O)[C@H](N)[C@@H]2O)C[C@@H]2O[C@](O)(C[C@@H](O)C[C@@H](O)CC[C@H](O)[C@@H](O)C[C@@H](O)CC(=O)O[C@H]1C)C[C@H](O)[C@H]2C(=O)O	MIC90	32 strains	-	2 µg/mL
CCCCCCCCCCCOC[N+](C)(C)Cc1cc(N=Nc2ccc(C)cc2)ccc1O	MBC	-	-	1021 µM
O=[N+]([O-])c1ccc(/C=N\O)cc1	MIC100	-	-	6020 µM
CCC(C)n1ncn(-c2ccc(N3CCN(c4ccc(OC[C@H]5CO[C@](Cn6cncn6)(c6ccc(Cl)cc6Cl)O5)cc4)CC3)cc2)c1=O	MIC90	TIMM3315 (azole-resistant)	-	>51 µg/mL
C/C(=N/O)C(Cl)(Cl)Cl	MIC	-	-	3220 µM
CC1=NN(c2nnc3c(n2)Nc2ccccc2C3)C(=O)C1	MIC	ATCC 2091	-	200 µg/mL
CC(C)N1CCN(c2nc(NCCNc3ncnc4c(Br)cc(Br)cc34)nc(NC3CC3)n2)CC1	MIC	MTCC 183	agar	100 µg/mL
Clc1ccc(C(c2ccccc2)n2ccnc2)cc1	MFC	-	broth dilution	0.5 µg/mL
Cc1ccc(-n2c(=S)[nH]c3c(sc(=S)n3-c3ccc(Cl)cc3)c2=O)cc1	MIC	DSM 70443	-	100 µg/mL
O=C1CSC(c2ccccc2)N1c1nnc2c(n1)[nH]c1ccccc12	MIC	ATCC 2091	-	200 µg/mL
COc1ccc(N2CCN(c3ccc(C(=O)N[C@H]4CCCNC(=O)C5C[C@H](N)CN5C(=O)C(C(C)O)NC(=O)C(CCc5ccc(O)cc5)NC(=O)C5C[C@@H](O)CN5C(=O)C(C(C)O)NC4=O)cc3)CC2)cc1	MIC	ATCC CCH442	-	3.12 µg/mL
Clc1nc(NC2CC2)nc(N2CCN(c3ncccn3)CC2)n1	MIC	MTCC 183	agar	100 µg/mL
NS(=O)(=O)c1ccc(C2C=C(c3ccc(Br)cc3)C(Br)C2c2ccccc2)cc1	MIC	ATCC 2091	-	50 µg/mL
c1ccc(CO/N=C(/Cn2ccnc2)c2ccccc2)cc1	MIC	3M	-	64 µg/mL
CC1=NN(c2nnc3c(n2)Nc2ccccc2N3)C(=O)C1	MIC	ATCC 2091	-	200 µg/mL
c1ccc(C(c2ccccc2)n2cncn2)cc1	MIC90	-	agar	32 µg/mL
O/N=C\c1ccc(F)cc1	MIC100	-	-	7200 µM
CCCCCOc1ccc(-c2ccc(-c3ccc(C(=O)N[C@H]4CCCNC(=O)[C@@H]5C[C@H](N)CN5C(=O)[C@H](Cc5ccc(O)cc5)NC(=O)C(CCc5ccc(O)cc5)NC(=O)[C@@H]5C[C@@H](O)CN5C(=O)[C@H]([C@@H](C)O)NC4=O)cc3)cc2)cc1	MIC	ATCC 10231	-	0.78 µg/mL
CC(C)S(=O)(=O)N1CCN(c2cnn(-c3cc(F)cc(F)c3)c(=O)c2OC2CCC(F)C2)CC1	MIC	C375	broth dilution	0.25 µg/mL
O=[N+]([O-])c1cccc(/C=N\O)c1	MIC	-	-	6020 µM
Cc1ccc(N=Nc2ccc(O)c(C[N+](C)(C)COC3CCCCCC3)c2)cc1	MBC	-	-	143 µM
Clc1ccc(/C(Cn2ccnc2)=N\OCc2ccccc2)cc1	MIC	CA6	-	>16 µg/mL
C/C=C/C=C(/C)C(=O)O[C@H]1[C@H](O)[C@H](OCC23C4C=C(C(C)C)C2(C(=O)O)C(C=O)(C4)[C@@H]2CC[C@@H](C)[C@H]23)O[C@H](C)[C@H]1OC	MIC	2381E	-	0.06 µg/mL
CCC(C)CC(C)CCCCCCCCC(=O)N[C@H]1C[C@@H](O)[C@H](NCCN)NC(=O)[C@@H]2[C@@H](O)CCN2C(=O)[C@H]([C@H](O)CCN)NC(=O)[C@H]([C@H](O)[C@@H](O)c2ccc(O)cc2)NC(=O)[C@@H]2C[C@@H](O)CN2C(=O)[C@H]([C@@H](C)O)NC1=O	MIC	C697	broth dilution	0.06 µg/mL
O/N=C\c1ccccc1O	MIC	-	-	1800 µM
CCC(C)CC(C)CCCCCCCCC(=O)N[C@H]1C[C@@H](O)[C@H](NCCN)NC(=O)[C@@H]2[C@@H](O)CCN2C(=O)[C@H]([C@H](O)CCN)NC(=O)[C@H]([C@H](O)[C@@H](O)c2ccc(O)cc2)NC(=O)[C@@H]2C[C@@H](O)CN2C(=O)[C@H]([C@@H](C)O)NC1=O	MIC	8647	broth dilution	8 µg/mL
C=CC(C)(/C=C\c1ccc(O)cc1)c1ccc(O)cc1	MIC	Y1-3	-	50 µg/mL
CCCCOC[N+](C)(C)Cc1cc(N=Nc2ccc(C)cc2)ccc1O	MIC	-	-	319 µM
NNC(=O)Cc1nnc2n1-c1nc3ccccc3nc1NN2	MIC	ATCC 2091	-	200 µg/mL
FC(F)(F)c1cccc(N2CCN(c3nc(Cl)nc(NC4CC4)n3)CC2)c1	MIC	MTCC 183	agar	50 µg/mL
COc1ccc(C(c2ccc(OC)cc2)n2ccnc2)cc1	MFC	-	broth dilution	>256 µg/mL
NS(=O)(=O)c1ccc(C2C=C(c3ccc(Cl)cc3)CC2c2ccccc2)cc1	MIC	ATCC 2091	-	200 µg/mL
CC(=O)N1CCN(c2nc(NCCNc3ncnc4c(Br)cc(Br)cc34)nc(NC3CC3)n2)CC1	MIC	MTCC 183	agar	50 µg/mL
CCCCCOc1ccc(-c2ccc(-c3ccc(C(=O)N[C@H]4CCCNC(=O)[C@@H]5C[C@H](NC(=O)CCC(=O)O)CN5C(=O)[C@H]([C@@H](C)O)NC(=O)[C@H](CCc5ccc(O)cc5)NC(=O)[C@@H]5C[C@@H](O)CN5C(=O)[C@H]([C@@H](C)O)NC4=O)cc3)cc2)cc1	MIC	ATCC CCH442	-	1.56 µg/mL
Clc1ccc(/C(Cn2ccnc2)=N/OCc2ccccc2)c(Cl)c1	MIC	CA7	-	16 µg/mL
C[N+](C)(COCC1CCCCC1)Cc1cc(N=Nc2ccc(Cl)cc2)ccc1O	MIC	-	-	68 µM
Fc1ccc(/C(Cn2ccnc2)=N/OCc2ccccc2)cc1	MIC	CA12	-	>128 µg/mL
CCSc1nc2c(sc(=S)n2-c2ccccc2C)c(=O)n1-c1ccccc1	MIC	DSM 70443	-	160 µg/mL
CCC(O)/C=C/C=C/C=C/C(=O)OC[C@H]1O[C@@H](O[C@H]2[C@H](OC(=O)/C=C/C=C/CC(O)/C(C)=C/C=C/CCC(C)CC)[C@@H](O)[C@@]3(OCc4cc(O)cc(O)c43)O[C@@H]2CO)[C@H](O)[C@@H](O)[C@H]1O	MIC	A9540	-	1.6 µg/mL
CCCCCOc1ccc(-c2ccc(-c3ccc(CN[C@H]4CCCNC(=O)C5C[C@H](N)CN5C(=O)C(C(C)O)NC(=O)C(CCc5ccc(O)cc5)NC(=O)C5C[C@@H](O)CN5C(=O)C(C(C)O)NC4=O)cc3)cc2)cc1	MIC	ATCC 62376	-	0.39 µg/mL
Cc1ccccc1-n1c(=S)sc2c(=O)n(-c3ccccc3)c(=S)[nH]c21	MIC	DSM 70443	-	90 µg/mL

3 of the rows above, restated:

{"structure": "C[N+](C)(COCC1CCCCC1)Cc1cc(N=Nc2ccc(Cl)cc2)ccc1O", "endpoint": "MIC", "value": "68 µM"}
{"structure": "C[C@H]1[C@H](O)[C@@H](C)/C=C/C=C/C=C/C=C/C=C/C=C/C=C/[C@H](O[C@@H]2O[C@H](C)[C@@H](O)[C@H](N)[C@@H]2O)C[C@@H]2O[C@](O)(C[C@@H](O)C[C@@H](O)CC[C@H](O)[C@@H](O)C[C@@H](O)CC(=O)O[C@H]1C)C[C@H](O)[C@H]2C(=O)O", "endpoint": "MIC90", "strain": "32 strains", "value": "2 µg/mL"}
{"structure": "CC(C)N1CCN(c2nc(NCCNc3ncnc4c(Br)cc(Br)cc34)nc(NC3CC3)n2)CC1", "endpoint": "MIC", "strain": "MTCC 183", "read by": "agar", "value": "100 µg/mL"}